Read-outs that look alike come from different tables or passages of the source.
Tests used:
human red blood cells [1] = conditions: comparator agents (#3A-#6E), previously reported; cited from earlier work
human red blood cells [2] = assay: Hemolysis assay; type: cell-based; conditions: E. coli over human red blood cells
Experimental: Fresh human blood (5 ml) was collected from a healthy donor. Erythrocytes were separated by centrifugation at 1000 rpm for 10 min, washed three times with Tris buffer (10 mM Tris, 150 mM NaCl, pH 7.2) and diluted to final concentration (5%, v/v). 50 μl of antimicrobial solution at different concentrations mixed with 50 μl erythrocytes stock were added to a 96-well microplate and incubated for 1 h at 37° C. with 150 rpm shaking. The microplate were centrifuged at 1,000 rpm for 10 min. 80 μl aliquots of the supernatant were then transferred to a new 96-well microplate and diluted with another 80 μl of Tris buffer. Hemolysis was measured as the absorbance at 540 nm with a microplate reader (BIO-RAD, US). Complete hemolysis was determined in Tris buffer plus 0.1% Triton x-100 as positive control, while Tris buffer was used as negative control. The percentage of hemolysis (H) was calculated using the following equation: Hemolysis=[(Op−Ob)/(Ot−Ob)]×100%, where Op is the density for a given antimicrobial agent concentration, Ob is the density for the buffer, and Ot is the density for the Triton x-100 positive control.

Substance | Selectivity: HC50/MIC(E. coli) (human red blood cells [1]) | Selectivity: HC50/MIC(E. coli) (human red blood cells [2])
Magainin-2 | >2 | 
chitosan-graft-polylysine [CS-g-K1] |  | >625
chitosan-graft-polylysine [CS-g-K3-HMW] |  | >313
chitosan-graft-polylysine [CS-g-K3] |  | >2500
chitosan-graft-polylysine [CS-g-K9] |  | >5000
chitosan-graft-polylysine [CS-g-K25] |  | >5000

From patent publication US20140228279A1, “CATIONIC PEPTIDOPOLYSACCHARIDES WITH EXCELLENT BROAD- SPECTRUM ANTIMICROBIAL ACTIVITIES AND HIGH SELECTIVITY” (priority 2011, published 2014)
